Pooled drug test results. Numbers come from NIAID ChemDB, via PubChem.

Shared fields: tests in culture; organism: Rhinovirus; method: cytopathic effect; endpoint: EC50

Lines come from different laboratories, so protocols vary. ECn: concentration that inhibits the pathogen or its effect by n%.

smiles | cell line | strain or isolate | value
CCOC(=O)c1ccc(OCCC2CCN(c3ccc(C)nn3)CC2)cc1 | HELA-OHIO | Serotype 45 (group A) | >19 µM
CS(=O)(=O)c1ccc(NCCc2ccc(Cl)c(Cl)c2)nc1 | HeLa | TYPE 2 | <1.3 µg/mL
CCOC(=O)c1ccc(OCCOc2ccc(-c3snc(SC)c3C#N)cc2)cc1 | HELA-OHIO | Serotype 45 (group A) | >2 µM
Cc1nc(-c2cc(C)c(OCCCc3cc(C4CC4)no3)c(C)c2)no1 | HeLa | Serotype 25 | 0.006 µg/mL
CS(=O)(=O)c1ccc(NCCc2ccc(Cl)cc2)nc1 | HeLa | TYPE 64 | 1.6 µg/mL
CSc1nsc(-c2ccc(OCCCCOc3ccccc3)cc2)c1C#N | HELA-OHIO | Serotype 86 (group A) | 0.45 µM
Cc1c(-c2ccccc2)n(-c2ccc(F)cc2)c2ccc(C(C)C)cc2c1=O | HELA-OHIO | Clinical isolate | 0.03 µg/mL
CSc1nsc(-c2ccc(OCCOc3ccccc3)cc2)c1C#N | HELA-OHIO | Serotype 15 (group B) | >20 µM
Cc1c(-c2ccccc2)n(-c2cccc(F)c2)c2ccc(C(C)C)cc2c1=O | HELA-OHIO | 36/342H | 0.085 µg/mL
COc1ccc(-c2snc(SC)c2C#N)cc1 | HELA-OHIO | Serotype 85 (group B) | >12 µM
CCOc1cc(CCCOc2c(C)cc(-c3noc(C)n3)cc2C)on1 | HeLa | Serotype 86 | 0.045 µg/mL
CCS(=O)(=O)c1ccc(NCc2ccc(Cl)cc2)nc1C#N | HeLa | TYPE 1A | 6.3 µg/mL
CSc1nsc(-c2ccc(OCCCOc3ccc(C#N)cc3)cc2)c1C#N | HELA-OHIO | Serotype 89 (group B) | >2 µM
COc1ccc(CNc2ccc(S(C)(=O)=O)cn2)cc1OC | HeLa | TYPE 64 | >10 µg/mL
CCc1nc(-c2cc(C)c(OCCCc3cc(COC)no3)c(C)c2)no1 | HeLa | Serotype 1B | 0.069 µg/mL
CCOC(=O)c1ccc(OCCCOc2ccc(-c3snc(SC)c3C#N)cc2)cc1 | HELA-OHIO | Serotype 89 (group B) | >2 µM
CCOC(=O)c1ccc(OCCC2CCN(c3ccc(C)nn3)CC2)cc1 | WI-38 | Serotype 28 | <0.1 µg/mL
CCn1c2c(c(=O)c3cc(C(C)C)ccc31)Cc1ccccc1-2 | HELA-OHIO | TYPE 1B/B632 | 0.54 µg/mL
CS(=O)(=O)c1ccc(Cc2ccc(Cl)c(Cl)c2)nc1 | HeLa | TYPE 1B | <0.3 µg/mL
CSc1nsc(-c2ccc(O)cc2)c1C#N | HELA-OHIO | Serotype 89 (group B) | >10 µM
CS(=O)(=O)c1ccc(NCc2ccc(Cl)c(Cl)c2)nc1 | HeLa | TYPE 64 | 0.3 µg/mL
CSc1nsc(-c2ccccc2)c1C#N | HELA-OHIO | Serotype 29 (group B) | >80 µM

The first 3 rows once more:

smiles | cell line | strain or isolate | value
CCOC(=O)c1ccc(OCCC2CCN(c3ccc(C)nn3)CC2)cc1 | HELA-OHIO | Serotype 45 (group A) | >19 µM
CS(=O)(=O)c1ccc(NCCc2ccc(Cl)c(Cl)c2)nc1 | HeLa | TYPE 2 | <1.3 µg/mL
CCOC(=O)c1ccc(OCCOc2ccc(-c3snc(SC)c3C#N)cc2)cc1 | HELA-OHIO | Serotype 45 (group A) | >2 µM